The species named for this data set is Rattus norvegicus. The data set is described as follows: DrugMatrix - Regimen: Daily Repeat. Type of data set: toxicity, organism-based, Sprague-Dawley. Set-up: regimen Daily Repeat, gender Male, age 6-8 weeks. The conditions noted are these: in vivo, po, 120 h, tissue Blood, route oral GAVAGE, time 5 day, vehicle 100 % WATER.

Consider THIMEROSAL, for which the MONOCYTE came out at 2.33% (1 mg/kg, dose level Low) and 2.33% (10 mg/kg, dose level High).

The record behind these values is ChEMBL document CHEMBL3885881, “DrugMatrix”.
